System: 3T3-L1 adipocytes
Assay: Glucose uptake assay
Type: cell-based
Conditions: for % Activation, Average: average of two experiments; for % Activation, First: first experiment; for % Activation, Second: second experiment
Method: Study Protocol • 1. 3T3-L1 fibroblasts were cultured in DMEM containing 25 mM glucose and 10% bovine calf serum at 37 °C with 5% CO2. • 2. 3T3-L1 fibroblasts were differentiated into adipocytes 2 days post confluent with the same DMEM medium containing 1 ug/ml insulin (Sigma-Aldrich), 1 uM dexamethasone (Sigma-Aldrich), and 0.5 mM isobutyl-1-methylxanthine (Sigma-Aldrich). • 3. Media were replaced with DMEM containing 10% FBS and 1 ug/ml insulin and culture 2 days. • 4. Seed 1×10^5 3T3-L1 adipocytes to 96 wells cell culture plate (DMEM, 10% FBS, 1% PS, 1 ug/ml insulin) • 5. Before experiments, adipocytes were incubated in serum free medium for starvation overnight. • 6. Dilute each sample 100 folds (2 ul primal solution to 198 ul buffer) in corresponding buffer. Add 2 ul of sample primal solution, 100 folds diluted solution and buffer to 198 ul KRPH buffer. • 7. 3T3-L1 adipocytes were washed with KRPH buffer (5 mM Na2HPO4, 20 mM HEPES, pH 7.4, 1 mM MgSO4.1 mM CaCl2, 136 mM NaCl, […], and 1% BSA) three times, Add 90 ul/well KRPH containing human insulin and samples to assay plate, incubate for 30 min at 37[…] and 5% CO2. • 8. Add 10 ul KRPH containing 0.25 uCi 1-[3H]-2-deoxyglucose/well and 50 umol/l 2-deoxyglucose and Incubate 10 min in 95% air/5% CO2 at 37[…] • 9. The transport was stopped by rinsing the cells with cold PBS containing 10 mM glucose for three times. • 10. The adipocytes were lysed in 50 ul 10% KOH for 5 min • 11. Then the aliquots were subjected to scintillation counting using TriCap.

B1: AFOD RAAS 108: from A1AT from fraction IV (protein, UniProt P01009 25-418, looked up)
Alpha-1-antitrypsin: EDPQGDAAQKTDTSHHDQDHPTFNKITPNLAEFAFSLYRQLAHQSNSTNIFFSPVSIATAFAMLSLGTKADTHDEILEGLNFNLTEIPEAQIHEGFQELLRTLNQPDSQLQLTTGNGLFLSEGLKLVDKFLEDVKKLYHSEAFTVNFGDTEEAKKQINDYVEKGTQGKIVDLVKELDRDTVFALVNYIFFKGKWERPFEVKDTEEEDFHVDQVTTVKVPMMKRLGMFNIQHCKKLSSWVLLMKYLGNATAIFFLPDEGKLQHLENELTHDIITKFLENEDRRSASLHLPKLSITGTYDLKSVLGQLGITKVFSNGADLSGVTEEAPLKLSKAVHKAVLTIDEKGTEAAGAMFLEAIPMSIPPEVKFNKPFVFLMIEQNTKSPLFMGKVVNPTQK
- % Activation, Average (sample at 0.0005%): 7.8%
- % Activation, First (sample at 0.0005%): 4.15%
- % Activation, Second (sample at 0.0005%): 11.49%
- % Activation, Average (sample at 0.05%): 30.3%
- % Activation, First (sample at 0.05%): 23.16%
- % Activation, Second (sample at 0.05%): 37.37%

— US20170266266A1, “Functions of 55 Newfound Proteins and Their Medicinal Application in the Treatment and Prevention of Disease” (priority 2012, published 2017)
